Test [1] deals with m^6A methylation in viral RNA. The experiment in a line: m6A methylation in viral RNA from MDCK cells treated with oligos. The format is cell-based, influenza A virus. The conditions noted are these: MDCK cells pre-treated with oligo, after selection with Zanamivir; FIG. 8.
Test [2] relates to m^6A levels in MDCK cells. The experiment in a line: m6A levels in MDCK cells transfected with oligonucleotides. The conditions noted are these: 100 nM oligo, 72 hrs after transfection.

On to “5′ GG/i2FA/CUGG/i2FA/CUGG/i2FA/CUGG/i2FA/CU 3′”, for which the “m^6A methylation in corresponding viral RNA” value in test [1] is “concomitant decrease”. Also, the “inhibition of m^6A levels” value in test [2] is listed as 80%.
